Results reported in ChEMBL document CHEMBL1221284, “Development of 2-pyrrolidinyl-N-methyl pyrimidones as potent and orally bioavailable HIV integrase inhibitors” (Bioorg Med Chem Lett, 2010).

Assays:
[1] = system: Human immunodeficiency virus 1; experiment: Antiviral activity against HIV1 harboring integrase N155S mutant relative to wild type; assay type: functional
[2] = system: Human immunodeficiency virus 1; experiment: Antiviral activity against HIV1 harboring integrase T125K and […] double mutant relative to wild type; assay type: functional

In the case of Cc1nnc(C(=O)NC(C)(C)c2nc(C(=O)NCc3ccc(F)cc3)c(O)c(=O)n2C)o1, the “Ratio IC50” value [1] is reported as 10 and the “Ratio IC50” value [2] is reported as 8.
